A mixed list of measured activities; the numbers were collected in NIAID ChemDB.

Shared fields: whole-cell or culture tests; species: Aspergillus fumigatus

An empty or dashed field is not shown. ECn is the concentration giving n% inhibition of infection, replication or growth. A number after MIC or MFC names an inhibition level or a share of isolates. Lines come from different laboratories, so protocols vary. Two numbers with a dash give a range or band.

structure,strain,method,endpoint,value
C[C@H]1[C@H](O)[C@@H](C)/C=C/C=C/C=C/C=C/C=C/C=C/C=C/[C@H](O[C@@H]2O[C@H](C)[C@@H](O)[C@H](N)[C@@H]2O)C[C@@H]2O[C@](O)(C[C@@H](O)C[C@@H](O)CC[C@H](O)[C@@H](O)C[C@@H](O)CC(=O)O[C@H]1C)C[C@H](O)[C@H]2C(=O)O,-,-,MIC50,0.5 µg/mL
CCC(C)n1ncn(-c2ccc(N3CCN(c4ccc(OC[C@H]5CO[C@](Cn6cncn6)(c6ccc(Cl)cc6Cl)O5)cc4)CC3)cc2)c1=O,35 isolates,-,Geometric mean MIC,0.37 µg/mL
C[C@H]1[C@H](O)[C@@H](C)/C=C/C=C/C=C/C=C/C=C/C=C/C=C/[C@H](O[C@@H]2O[C@H](C)[C@@H](O)[C@H](N)[C@@H]2O)C[C@@H]2O[C@](O)(C[C@@H](O)C[C@@H](O)CC[C@H](O)[C@@H](O)C[C@@H](O)CC(=O)O[C@H]1C)C[C@H](O)[C@H]2C(=O)O,150 clinical isolates,-,MIC90,0.5–1 µg/mL
COc1ccc([C@H]2SC(C)C(=O)N2c2nc(N3CCN(C)CC3)n[nH]2)cc1OC,168.95,broth dilution,MIC,>100 µg/mL
CCCCCCCCCC(=O)NC(CCCN)C(=O)NC(CCCN)C(=O)NC(CCCN)C(N)=O,ATCC 42203,broth dilution,MIC,50 µg/mL
CCC1C=C(c2ccc(Br)cc2)C(=O)O1,231,-,MIC,>125 µM
C[C@@H]1CCC2(OC1)OC1CC3C4C[C@H](OC5O[C@@H](CO)[C@H](O)[C@@H](O)[C@@H]5O)[C@H]5C[C@@H](OC6O[C@H](CO)[C@@H](O)[C@H](O)[C@H]6O)CC[C@]5(C)C4CC[C@]3(C)C1[C@@H]2C,ATCC 90906,-,EC50,>20 µg/mL
CCC1C=C(c2cccc(Cl)c2)C(=O)O1,231,-,MIC,>125 µM
CN(Cc1cccc2ccccc12)/N=C\c1ccc(C(C)(C)C)cc1,-,-,MIC,>64 µg/mL
CCCCCOc1ccc(-c2ccc(-c3ccc(C(=O)N[C@H]4C[C@@H](O)[C@@H](O)NC(=O)[C@@H]5[C@@H](O)[C@@H](C)CN5C(=O)[C@H]([C@H](C)O)NC(=O)[C@H]([C@H](O)[C@@H](O)c5ccc(O)cc5)NC(=O)[C@@H]5C[C@@H](O)CN5C(=O)[C@H]([C@H](C)O)NC4=O)cc3)cc2)cc1,94-46,-,MIC,>50 µg/mL
O=c1cc(CO)occ1O,AF293,agar,MIC99,>12800 µM
Cc1cccc(/C=N\N(C)Cc2cccc3ccsc23)c1,-,-,MIC,>64 µg/mL
CCCCCCCCCCCCCCCCCC(=O)NC(CCCN)C(=O)NC(CCCN)C(=O)NC(CCCN)C(N)=O,ATCC 42203,broth dilution,MIC,1.5 µg/mL
CN(Cc1cccc2ccccc12)/N=C\c1ccccc1,-,-,MIC,>64 µg/mL
CCCCCCCCCCCCCCCC(=O)NC(CCCN)C(=O)NC(CCCN)C(=O)NC(CCCN)C(N)=O,ATCC 42203,broth dilution,MIC,3.1 µg/mL
CN(Cc1cccc2ccccc12)/N=C\c1ccc(Cl)cc1,-,-,MIC,>64 µg/mL
CCC(C)n1ncn(-c2ccc(N3CCN(c4ccc(OC[C@H]5CO[C@](Cn6cncn6)(c6ccc(Cl)cc6Cl)O5)cc4)CC3)cc2)c1=O,19 isolates,-,MFC90,2 µg/mL
C[C@H]1[C@H](O)[C@@H](C)/C=C/C=C/C=C/C=C/C=C/C=C/C=C/[C@H](O[C@@H]2O[C@H](C)[C@@H](O)[C@H](N)[C@@H]2O)C[C@@H]2O[C@](O)(C[C@@H](O)C[C@@H](O)CC[C@H](O)[C@@H](O)C[C@@H](O)CC(=O)O[C@H]1C)C[C@H](O)[C@H]2C(=O)O,Isolate AF210,-,MFC,8 µg/mL
CN1CCN(c2n[nH]c(N3C(=O)CS[C@@H]3c3ccc4c(c3)OCO4)n2)CC1,165.86,broth dilution,MIC,50 µg/mL
COc1ccc(/C=N\N(C)Cc2cccc3ccccc23)cc1,-,-,MIC,>64 µg/mL
CCCCCC1C=C(c2ccc(Br)cc2)C(=O)O1,231,-,MIC,>125 µM
C[C@@H](c1ncncc1F)[C@](O)(Cn1cncn1)c1ccc(F)cc1F,94 isolates,-,Geometric mean MFC,1.69 µg/mL
CCN1CCC(O)(/C=C/c2ccc(Cl)cc2)C(C(=O)/C=C/c2ccc(Cl)cc2)C1,28 strains (itraconazole-resistant),-,Mean MIC,5.1 µg/mL
Cc1ccc(C(C)C)cc1,CECT2071,-,MLC,>20 µg/mL
CCCCCC1C=C(c2ccc(Cl)c(Cl)c2)C(=O)O1,231,-,MIC,>125 µM
CCCCCOc1ccc(-c2ccc(-c3ccc(C(=O)N[C@H]4C[C@@H](O)[C@@H](O)NC(=O)[C@@H]5[C@@H](O)[C@@H](C)CN5C(=O)[C@H]([C@H](C)O)NC(=O)[C@H]([C@H](O)[C@@H](O)c5ccc(O)cc5)NC(=O)[C@@H]5C[C@@H](O)CN5C(=O)[C@H]([C@H](C)O)NC4=O)cc3)cc2)cc1,35 isolates,-,MIC90,0.0075 µg/mL
CC1C=C(c2ccc(Br)c(Br)c2)C(=O)O1,231,-,MIC,>125 µM
CC1S[C@H](c2ccc3c(c2)OCO3)N(c2nc(N3CCOCC3)n[nH]2)C1=O,168.95,broth dilution,MIC,100 µg/mL
CC1C=C(c2cccc(F)c2)C(=O)O1,231,-,MIC,>125 µM
CCCCCCCCCCCCCC(=O)NC(CCCN)C(N)=O,ATCC 42203,broth dilution,MIC,>100 µg/mL
COc1ccc(C2=CC(C)OC2=O)cc1,231,-,MIC,>125 µM
CCC(C)n1ncn(-c2ccc(N3CCN(c4ccc(OC[C@H]5CO[C@](Cn6cncn6)(c6ccc(Cl)cc6Cl)O5)cc4)CC3)cc2)c1=O,35 isolates,-,MIC50,0.25 µg/mL